# Test results from ChEMBL document CHEMBL1201862, “PubChem BioAssay data set” (2004).
# The list shows a part of the results. The rule behind the calls is not given here.
# Biological target: T1, Thioredoxin peroxidase (Schistosoma mansoni) (UniProt O97161)
# T1 sequence (whole entry): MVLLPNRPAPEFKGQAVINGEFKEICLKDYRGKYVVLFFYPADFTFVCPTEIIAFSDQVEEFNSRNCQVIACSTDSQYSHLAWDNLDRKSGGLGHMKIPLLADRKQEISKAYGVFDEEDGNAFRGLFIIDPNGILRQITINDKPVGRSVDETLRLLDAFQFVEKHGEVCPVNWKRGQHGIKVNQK
# Assay: Confirmation Concentration-Response Assay for Inhibitors of the Schistosoma mansoni Redox Cascade. [Related pubchem assays: 448 ]
# Type: functional
compound,measurement,value
CCc1nc2c([nH]1)c1no[n+]([O-])c1c1no[n+]([O-])c21,Potency,active: 13.1 µM
